A mixed list of measured activities; the numbers were collected in NIAID ChemDB.

Shared fields: whole-cell or culture tests; organism: Cryptosporidium parvum

An empty or dashed field is not shown.

smiles	dose	measure	read by	strain	cells	value
CCCN(CCC)c1c([N+](=O)[O-])cc(C(=O)O)cc1[N+](=O)[O-]		EC50	ELISA / luminescence		MDCK cells	5.8 µM
O=c1[nH]c(=O)n([C@H]2C[C@H](O)[C@@H](CO)O2)cc1C(F)(F)F	50 µg/mL	inhibition				88%
COCCN(CCOC)c1c([N+](=O)[O-])cc(C(F)(F)F)cc1[N+](=O)[O-]		EC50	ELISA / luminescence		MDCK cells	6.5 µM
Nc1ccc(S(=O)(=O)Nc2cnc3ccccc3n2)cc1	0.032 µg/mL	inhibition		Human isolate	L929	40.29%
CO[C@H]1O[C@@H](n2ccc(=O)[nH]c2=O)C[C@@H]1N=[N+]=[N-]	25 µg/mL	inhibition				5%
O=C(O)c1cc([N+](=O)[O-])c(N2CCOCC2)c([N+](=O)[O-])c1		EC50	ELISA / luminescence		MDCK cells	>10 µM
NC(=O)c1ncn([C@@H]2O[C@H](CO)[C@@H](O)[C@H]2O)n1	25 µg/mL	inhibition				73%
CCC(CC)Nc1c([N+](=O)[O-])cc(S(N)(=O)=O)cc1[N+](=O)[O-]		EC50	ELISA / luminescence		MDCK cells	0.74 µM
NC[C@@H]1O[C@H](O[C@H]2[C@@H](O)[C@H](O[C@@H]3[C@@H](O)[C@H](N)C[C@H](N)[C@H]3O[C@H]3O[C@H](CO)[C@@H](O)[C@H](O)[C@H]3N)O[C@@H]2CO)[C@H](N)[C@@H](O)[C@@H]1O	25 µg/mL	inhibition				28%
N#CC(c1ccc(Cl)cc1)c1c(Cl)cc(-n2ncc(=O)[nH]c2=O)cc1Cl	0.032 µg/mL	inhibition		Calf isolate	L929	7.52%
CCCN(CCC)c1c([N+](=O)[O-])cc(S(N)(=O)=O)cc1[N+](=O)[O-]		EC50	ELISA / luminescence		MDCK cells	0.15 µM
CCCCN(CCCC)CCC(O)c1cc2c(Cl)cc(Cl)cc2c2cc(C(F)(F)F)ccc12	0.032 µg/mL	inhibition		Calf isolate	L929	-1.73%
CC(C)c1nc(CN(C)C(=O)N[C@H](C(=O)N[C@@H](Cc2ccccc2)C[C@H](O)[C@H](Cc2ccccc2)NC(=O)OCc2cncs2)C(C)C)cs1	10 µg/mL	inhibition			HCT-8	45%
Nc1ccn([C@@H]2O[C@H](CO)[C@@H](O)[C@@H]2O)c(=O)n1	1 µg/mL	inhibition				63%
CC(=O)N[C@@H](CC(C)C)C(=O)N[C@@H](CC(C)C)C(=O)N[C@H](C=O)CCCN=C(N)N	500 µg/mL	inhibition				56.6%
CC(C)N=C(N)/N=C(\N)Nc1ccc(Cl)cc1	0.032 µg/mL	inhibition		Calf isolate	L929	-6.11%
O=S(=O)(F)Cc1ccccc1	2000 µM	inhibition	cell count / microscopy			44.1%
CC(C)(C)NC(=O)[C@@H]1C[C@@H]2CCCC[C@@H]2CN1C[C@@H](O)[C@H](Cc1ccccc1)NC(=O)[C@H](CC(N)=O)NC(=O)c1ccc2ccccc2n1	10 µg/mL	inhibition			HCT-8	10%
O=[N+]([O-])c1cc(C(F)(F)F)cc([N+](=O)[O-])c1N(CCO)CCO		EC50	ELISA / luminescence		MDCK cells	11.3 µM
NC(=O)c1nc[nH]c1C(N)=O	4 µg/mL	inhibition		Human isolate	L929	47.43%

For reference, 2 entries again:

smiles | dose | measure | read by | strain | cells | value
CCCCN(CCCC)CCC(O)c1cc2c(Cl)cc(Cl)cc2c2cc(C(F)(F)F)ccc12 | 0.032 µg/mL | inhibition |  | Calf isolate | L929 | -1.73%
NC[C@@H]1O[C@H](O[C@H]2[C@@H](O)[C@H](O[C@@H]3[C@@H](O)[C@H](N)C[C@H](N)[C@H]3O[C@H]3O[C@H](CO)[C@@H](O)[C@H](O)[C@H]3N)O[C@@H]2CO)[C@H](N)[C@@H](O)[C@@H]1O | 25 µg/mL | inhibition |  |  |  | 28%

Inhibition is in % at the dose shown (toxicity tests: loss of growth or viability). ECn: concentration that inhibits the pathogen or its effect by n%. Neighbouring rows are from separate reports.